A mixed list of measured activities; the numbers were collected in NIAID ChemDB.

All rows: whole-cell or culture tests; species: Mycobacterium tuberculosis

Blank or dashed fields: not listed here. ECn: concentration that inhibits the pathogen or its effect by n%. Inhibition is in % at the dose shown (toxicity tests: loss of growth or viability). MIC50, MIC90 and the like: level of inhibition, or share of isolates inhibited. Lines come from different laboratories, so protocols vary. MIC bound comes from a single tested concentration.

smiles,strain,method,read-out,dose,value
CO[C@H]1/C=C/O[C@@]2(C)Oc3c(C)c(O)c4c(O)c(c5c(c4c3C2=O)NC2(CCN(CC(C)C)CC2)N=5)=NC(=O)/C(C)=C\C=C\[C@H](C)[C@H](O)[C@@H](C)[C@@H](O)[C@@H](C)[C@H](OC(C)=O)[C@@H]1C,12 (rifampicin-susceptible),,MIC,,≤0.062 µg/mL
O=S(=O)(Nc1ccc(Cl)cn1)c1nnc2sc3ccccc3n12,H37Rv,,MIC,,10 µg/mL
Oc1ccccc1C=Nc1ccc(-c2nnc(NCc3ccccc3)s2)cc1,H37Rv,,inhibition,6.25 µg/mL,1%
O=S(=O)(Nc1ncccn1)c1nnc2sc3ccccc3n12,H37Rv,,MIC,,100 µg/mL
Cc1ccc(NC(=O)CNCC(C)C)cc1Cl,H37Rv,BACTEC,MIC bound,,>12.5 µg/mL
Cc1ccc(Nc2nnc(-c3ccc(N=Cc4cccc([N+](=O)[O-])c4)cc3)s2)cc1,H37Rv,,inhibition,6.25 µg/mL,36%
COc1ccc(C2=CC(c3cccc(Oc4ccccc4)c3)N=C(N)N2)cc1,H37Rv,resazurin,MIC,,1.25 µg/mL
CC(=O)Nc1cccc(Nc2nccc(Nc3ccc(C(=O)O)cc3CN(C)C3CCCCC3)n2)c1,H37Rv,resazurin,MIC,,16 µg/mL
O=C1C[C@@H](c2ccc(O)cc2)Oc2c1c(O)cc(O[C@@H]1O[C@H](CO)[C@@H](O)[C@H](O)[C@H]1O)c2[C@H]1C(=O)c2c(O)cc(O)cc2O[C@@H]1c1ccc(O)cc1,,,inhibition,12.5 µg/mL,0%
COC(=O)CSc1nnc(-c2ccc([N+](=O)[O-])s2)s1,H37Rv,resazurin,inhibition,6.25 µg/mL,100%
N#C/C(=C\c1ccc(Br)cc1)n1nnc2ccccc21,,,EC50,,<12.5 µg/mL
O=C(c1ccc(-c2ccc(Br)cc2)cc1)c1ccc([N+](=O)[O-])cc1,ATCC 27294,,MIC,,≤2 µg/mL
O=[N+]([O-])c1ccc2sc3nnc(SCc4ccc(C(F)(F)F)cc4)n3c2c1,H37Rv,,MIC,,20 µg/mL
CCCCN(CCCC)c1ccc(C(=O)C2CC2c2ccc(Cl)cc2)cc1,H37Rv,broth dilution / agar,MIC,,>12.5 µg/mL
O=C(C=Cc1cccc(Oc2ccccc2)c1)c1ccc(Cl)cc1Cl,H37Rv,resazurin,MIC,,2.16 µg/mL
N#C/C(=C\c1ccc(Cl)cc1)n1nnc2ccccc21,,,EC50,,<12.5 µg/mL
CCC1(Br)C(=O)NC(=O)NC1=O,H37Rv,BACTEC,inhibition,12.5 µg/mL,3%
O=C(c1ccc(Cl)cc1)c1ccc(-c2ccc(Br)cc2)cc1,ATCC 27294,,MIC,,≤0.5 µg/mL
Cc1ccc(CSc2ccnc(C#N)c2)cc1,CNCTC MY331/88,,MIC,,61.66 µM
CC(C)/C=N/n1c(N)c(C#N)c(C#N)c1C(C)C,H37Rv,resazurin,MIC bound,,>6.25 µg/mL
N#Cc1cc(SCc2ccccc2F)ccn1,CNCTC MY331/88,,MIC,,126 µM
COC(=O)C1=CN(c2ccc(C(=O)OC)cc2)C(=O)C1=[N+]=[N-],H37Rv,BACTEC,MIC bound,,>12.8 µg/mL
COc1cc(N=C(N)N)ccc1-c1ccc(-c2ccc(N=C(N)N)cc2OC)o1,,,EC50,,>12.5 µg/mL
Cc1nn(C(=O)c2cccnc2)c(-c2ccccc2)c1N=Nc1ccc(S(=O)(=O)Nc2ncccn2)cc1,H37Rv,resazurin,inhibition,6.25 µg/mL,6%
NC(=S)c1cc(SCc2cccc([N+](=O)[O-])c2)ccn1,CNCTC MY331/88,,MIC,,3.98 µM
O=C(c1ccc(N2CCN(c3cccc(Cl)c3Cl)CC2)cc1)C1CC1c1ccc(Cl)cc1,H37Rv,broth dilution / agar,MIC,,>12.5 µg/mL
Cc1c(C(=O)O)nn(-c2ccc(Cl)cc2Cl)c1-c1ccc(Cl)cc1,H37Rv,agar,MIC90,,12.5 µg/mL
COc1ccc(C2C3C(=O)OCCOC(=O)C3C2c2ccc(OC)c(OC)c2)cc1OC,H37Rv,BACTEC,inhibition,12.5 µg/mL,12%
Cc1ccnc(NS(=O)(=O)c2nnc3sc4ccccc4n23)c1,H37Rv,,MIC,,1 µg/mL
S=C(S)N1CCCC1,ETA-R,,MIC,,0.4 µg/mL
S=C1NC(c2ccc(Cl)cc2Cl)=CC(c2cccc(Oc3ccccc3)c2)N1,H37Rv,resazurin,inhibition,6.25 µg/mL,77%
CCNc1nnc(-c2ccc(N=Cc3cccc([N+](=O)[O-])c3)cc2)s1,H37Rv,,inhibition,6.25 µg/mL,0%
N#C/C(=C\c1ccccc1)n1nnc2ccccc21,,,MIC,,6.25 µg/mL
CC(C)(C)N/N=C(\Cc1nc2c3c(ccc2[nH]c1=O)C(=O)c1ccccc1C3=O)C(=O)NC1=C(Cl)C(=O)c2ccccc2C1=O,H37Rv,BACTEC,inhibition,12.5 µg/mL,58%
CC1COc2c(N3CCN(C)CC3)c(F)cc3c(=O)c(C(=O)O)cn1c23,08-685,BACTEC,MIC,,1 µg/mL
NC(=S)c1cc(SCc2cc([N+](=O)[O-])cc([N+](=O)[O-])c2)ccn1,CNCTC MY331/88,,MIC,,3.98 µM
O=C(N/N=C/c1ccc(O)cc1O)c1ccncc1,TAC-R,,MIC,,>8 µg/mL
Cc1c(-c2ccc(Cl)cc2)n[nH]c1C(=O)O,H37Rv,agar,MIC90,,12.5 µg/mL
O=C(C=Cc1cccc(Oc2ccccc2)c1)c1ccc(F)cc1,H37Rv,resazurin,MIC,,2.93 µg/mL
NNC(=O)c1ccncc1,H37Rv,BACTEC,MIC99,,0.29 µM
C=C1C(=O)[C@@]23C(CC[C@@H]1[C@H]2O)C1(COC(C)=O)C(O)CCC(C)(C)C1C[C@H]3O,H37Rv,BACTEC,inhibition,12.5 µg/mL,23%
Cc1ccc(/C=C(\C#N)n2nnc3ccccc32)cc1,,,inhibition,12.5 µg/mL,55%
Cc1cccn2c(=O)c(/C=N/NC(N)=S)c(Cl)nc12,H37Rv,resazurin,MIC bound,,>6.25 µg/mL
CC(=O)Nc1ccc(/C=N/NC(N)=S)cc1F,H37Rv,,MIC,,≤0.1 µg/mL
O=C(C=Cc1cccc(Oc2ccccc2)c1)c1ccc([N+](=O)[O-])cc1,H37Rv,resazurin,MIC,,0.75 µg/mL
O=C(CCC(=O)Nc1ccc(F)cc1)Nc1ccc(F)cc1,,,MIC,,250 µM
C[C@H]1COc2c(N3CCN(C)CC3)c(F)cc3c(=O)c(C(=O)O)cn1c23,25 strains,,MIC90,,0.39 µg/mL
NC(=O)c1cnc(Cl)cn1,ATCC 35828,,MIC,,32 µg/mL
O=C1C[C@@H](c2ccc(O)cc2)Oc2cc(O)c(-c3c(O)cc4c(c3O)C(=O)C[C@@H](c3ccc(O)cc3)O4)c(O)c21,,,MIC,,>12.5 µg/mL
COC(=O)C1=C2Nc3ccccc3[C@@]23CCN2C[C@]4(CC5C[C@]67CC(=O)O[C@H]6CCN6CC[C@H](C5N(c5ccccc5OC)C4)C67)[C@@H]4OCC[C@]4(C1)C23,H37Rv,resazurin,MIC90,,>100 µg/mL
CC12C(=O)N(c3nccs3)C(=O)C1(C)C1CCC2O1,H37Rv,BACTEC,MIC bound,,>12.5 µg/mL
CCCCNc1ccc(C(=O)C2CC2c2ccc(Cl)cc2)cc1,H37Rv,broth dilution / agar,MIC,,>12.5 µg/mL
O=c1cc(-c2ccc(Oc3c(-c4cccc([N+](=O)[O-])c4)oc4ccccc4c3=O)cc2)oc2ccccc12,,,EC50,,<12.5 µg/mL
O=C(c1ccc(NCc2ccco2)cc1)C1CC1c1ccc(Cl)cc1,H37Rv,broth dilution / agar,MIC,,>12.5 µg/mL
O=C(Nc1ccc([N+](=O)[O-])cc1)C(=O)Nc1ccc([N+](=O)[O-])cc1,,,MIC,,37 µM
COC(=O)C1=C2Nc3ccccc3[C@@]23CCN2C3[C@]3(CCO[C@H]3[C@@]3(CC4C[C@]56CC(=O)O[C@H]5CCN5CC[C@H](C4N(c4ccccc4OC)C3)C56)[C@H]2O)C1,H37Rv,,MIC90,,5.2 µg/mL
CC(C)Cc1cn(O)c2nc(=N)nc(N)c-2n1,H37Rv,BACTEC,inhibition,12.5 µg/mL,9%
N#C/C(=C/c1ccc(C(=O)O)cc1)n1nc2ccccc2n1,,,inhibition,12.5 µg/mL,6%
N#Cc1cc(SCc2cccc(F)c2)ccn1,CNCTC MY331/88,,MIC,,61.66 µM
O=c1c2ccccc2[nH]c2cc(-n3nnc4ccccc4c3=O)ccc12,H37Rv,BACTEC,MIC bound,,>12.5 µg/mL
O=c1cc(-c2ccc(O)c(-c3c(O)cc(O)c4c(=O)cc(-c5ccc(O)cc5)oc34)c2)oc2cc(O)cc(O)c12,,,MIC,,>12.5 µg/mL
COc1ccc(C(=O)c2ccc(-c3ccc(Br)cc3)cc2)cc1,ATCC 27294,,MIC,,≥32 µg/mL
N#Cc1cc(SCc2ccc(Cl)c(Cl)c2)ccn1,CNCTC MY331/88,,MIC,,61.66 µM
CCCCCCCCCCCCCCCCNc1ccc(C(=O)C2CC2c2ccc(Cl)cc2)cc1,H37Rv,broth dilution / agar,MIC,,>12.5 µg/mL
CO[C@H]1/C=C/O[C@@]2(C)Oc3c(C)c(O)c4c(O)c(cc(OCC(=O)O)c4c3C2=O)NC(=O)/C(C)=C\C=C\[C@H](C)[C@H](O)[C@@H](C)[C@@H](O)[C@@H](C)[C@H](OC(C)=O)[C@@H]1C,H37RV ATCC9360,,MIC,,0.05 µg/mL
O=C1NC(c2ccc(F)cc2)=CC(c2cccc(Oc3ccccc3)c2)N1,H37Rv,resazurin,inhibition,6.25 µg/mL,89%
Cc1cccc(CSc2ccnc(C#N)c2)c1,CNCTC MY331/88,,MIC,,61.66 µM
COc1ccc(/C=C/c2cc(O)cc(O[C@@H]3O[C@H](CO)[C@@H](O)[C@H](O)[C@H]3O)c2)cc1O,H37Rv,BACTEC,MIC,,≥12.8 µg/mL
COc1cc(C)cc2c1c[n+]1n2CCCC1.[OH-],H37Rv,agar,MIC,,32 µg/mL
CCC(C)[C@]1(O)O[C@@H]2C[C@]3(C)OC(=CC3=O)/C(C)=C\[C@@H]3OC(=O)[C@]1(C)[C@@H]32,H37Rv,BACTEC,MIC,,≥12.5 µg/mL
Cc1ccc(Nc2nnc(-c3ccc(N=Cc4ccc([N+](=O)[O-])o4)cc3)s2)cc1,H37Rv,,inhibition,6.25 µg/mL,22%
CCCC[C@@H](O)CN1CCC(COc2ccc(C(=O)c3ccc(Cl)cc3)c(Cl)c2)CC1,,resazurin,MIC,,6.25 µg/mL
O=C1CC(C2OCOC3COCOC32)CC(=O)N1,H37Rv,BACTEC,inhibition,12.5 µg/mL,25%
C[C@@H]1OC(O[C@H]2C(O[C@H]3CC[C@@]4(C)C(CC[C@]5(C)C4CC=C4C6CC(C)(C)CC[C@]6(C(=O)O)CC[C@]45C)[C@]3(C)CO)OC[C@H](O)[C@@H]2O)[C@H](O)[C@H](OO[C@@H]2O[C@H](CO)[C@H](O)[C@H]2O)[C@H]1O,H37Rv,,MIC,,>1000 µg/mL
Oc1cccc(C=Nc2ccc(-c3nnc(NCc4ccccc4)s3)cc2)c1,H37Rv,,inhibition,6.25 µg/mL,6%
N#C/C(=C\c1ccc(C(F)(F)F)cc1)n1nnc2ccccc21,,,EC50,,<12.5 µg/mL
NC(=O)c1cnccn1,H37Rv,agar,MIC90,,50 µg/mL
O=C1OC(=O)C2C1C1OC2[C@@H](Br)[C@@H]1Br,H37Rv,BACTEC,MIC bound,,>12.5 µg/mL
O=C(CCC(=O)Nc1cccc(Cl)c1)Nc1cccc(Cl)c1,,,MIC,,500 µM
N#Cc1cc(SCc2ccc(Br)cc2)ccn1,CNCTC MY331/88,,MIC,,30.9 µM
O=c1cc(-c2cccc(-c3ccc4c(=O)cc(-c5ccccc5)oc4c3)c2)oc2ccccc12,,,MIC,,>12.5 µg/mL
COC(=O)C1=C(C(=O)OC)C2(C)OC1C(=O)C21CC1,H37Rv,BACTEC,MIC bound,,>12.5 µg/mL
COc1cc(C(C)C)c(O[C@@H]2O[C@H](CO)[C@@H](O)[C@H](O)[C@H]2O)cc1C,H37Rv,agar,MIC,,62.5 µg/mL
Cc1ccc(NC(=S)NNC(=O)CN2C(=O)c3ccccc3C2=O)cc1,H37Rv,BACTEC,MIC bound,,>12.5 µg/mL
N#C/C(=C\c1ccc(N)cc1)n1nc2ccccc2n1,,,inhibition,12.5 µg/mL,28%

A second listing of 12 rows from above:

smiles,strain,method,read-out,dose,value
N#Cc1cc(SCc2ccccc2F)ccn1,CNCTC MY331/88,,MIC,,126 µM
CCCCNc1ccc(C(=O)C2CC2c2ccc(Cl)cc2)cc1,H37Rv,broth dilution / agar,MIC,,>12.5 µg/mL
Cc1c(C(=O)O)nn(-c2ccc(Cl)cc2Cl)c1-c1ccc(Cl)cc1,H37Rv,agar,MIC90,,12.5 µg/mL
Oc1ccccc1C=Nc1ccc(-c2nnc(NCc3ccccc3)s2)cc1,H37Rv,,inhibition,6.25 µg/mL,1%
CC(C)/C=N/n1c(N)c(C#N)c(C#N)c1C(C)C,H37Rv,resazurin,MIC bound,,>6.25 µg/mL
O=C(c1ccc(-c2ccc(Br)cc2)cc1)c1ccc([N+](=O)[O-])cc1,ATCC 27294,,MIC,,≤2 µg/mL
O=C1C[C@@H](c2ccc(O)cc2)Oc2c1c(O)cc(O[C@@H]1O[C@H](CO)[C@@H](O)[C@H](O)[C@H]1O)c2[C@H]1C(=O)c2c(O)cc(O)cc2O[C@@H]1c1ccc(O)cc1,,,inhibition,12.5 µg/mL,0%
O=S(=O)(Nc1ncccn1)c1nnc2sc3ccccc3n12,H37Rv,,MIC,,100 µg/mL
CCC(C)[C@]1(O)O[C@@H]2C[C@]3(C)OC(=CC3=O)/C(C)=C\[C@@H]3OC(=O)[C@]1(C)[C@@H]32,H37Rv,BACTEC,MIC,,≥12.5 µg/mL
Cc1ccc(Nc2nnc(-c3ccc(N=Cc4cccc([N+](=O)[O-])c4)cc3)s2)cc1,H37Rv,,inhibition,6.25 µg/mL,36%
N#C/C(=C\c1ccc(C(F)(F)F)cc1)n1nnc2ccccc21,,,EC50,,<12.5 µg/mL
Cc1ccc(CSc2ccnc(C#N)c2)cc1,CNCTC MY331/88,,MIC,,61.66 µM